The term Km denotes the concentration of substrate that gives half-maximal velocity. One may read the kcat as the number of substrate molecules converted per active site and unit of time at saturation. The term kcat/Km denotes the turnover number divided by the Michaelis constant.

The values that follow come from publication PMC4270374.

In the series the test system is O=c1ccn([C@@H]2O[C@H](COP(=O)(O)OP(=O)(O)O[C@H]3O[C@@H]([C@H](O)CO)[C@H](O)[C@H]3O)[C@@H](O)[C@H]2O)c(=O)[nH]1. The series is described as follows: purified protein. Conditions: 25 mM HEPES, 125 mM NaCl, 20 mM dithionite, pH 7.5, 37 °C.
Turning to “AfUGM K344A/K345A (background of all active site variants) (Aspergillus fumigatus; K344A/K345A/N207A)”, the Km came out at 166 ± 73 µM, the kcat was 0.13 s⁻¹ and the kcat/Km was determined as 800 M⁻¹ s⁻¹.
On to “AfUGM K344A/K345A (background of all active site variants) (Aspergillus fumigatus; K344A/K345A/Q107A)”, for which the Km was 2153 ± 570 µM, the kcat amounted to 4.7 s⁻¹ and the kcat/Km stood at 2000 M⁻¹ s⁻¹.
On the same counts, the results for “AfUGM K344A/K345A (background of all active site variants) (Aspergillus fumigatus; K344A/K345A/Y104A)” are 57 ± 17.5 µM, 0.17 s⁻¹ and 3000 M⁻¹ s⁻¹.
The corresponding values for “AfUGM K344A/K345A (background of all active site variants) (Aspergillus fumigatus; K344A/K345A/Y317A)” are 380 ± 129 µM, 0.28 s⁻¹ and 700 M⁻¹ s⁻¹.
On the same counts, the results for “TcUGM (Trypanosoma cruzi strain CL Brener; Q103A)” are 478 ± 172 µM, 0.14 s⁻¹ and 300 M⁻¹ s⁻¹.
Take “TcUGM (Trypanosoma cruzi strain CL Brener; Y100A)”: the Michaelis constant (Km) came out at 32 ± 12 µM, the kcat is 0.03 s⁻¹ and the catalytic efficiency (kcat/Km) worked out at 800 M⁻¹ s⁻¹.
The corresponding values for “TcUGM (Trypanosoma cruzi strain CL Brener; Y317F)” are 334 ± 38 µM, 0.3 s⁻¹ and 860 M⁻¹ s⁻¹.
